Data on one substance can be found in PMC9949255.

The target of the experiment is recombinant C.1086 gp140 K160N (HIV-1 strain C.1086). In words: ELISA; C.1086gp140K160N coated on the wells; incubated with PBS or bacterial lectin (50 μg/mL); soluble CD4 titrated 1:3 from 10 μg/mL, 1 hr at 37°C; detected with anti-human CD4 biotin (OKT4) and streptavidin AP. (In general: ELISA stands for enzyme-linked immunosorbent assay.)

As to “soluble CD4 (from UniProt P01730 26-396) (receptor)”, the 50% effective concentration (EC50) (commonly the concentration giving half of the maximal effect) came out at 1.6 nM.
